Compound potency records, mixed from different reports. Data source: NIAID ChemDB in PubChem.

Common to all: growth or infection tests; organism: Herpes simplex virus 1; method: cytopathic effect; measure: EC50

Lines come from different laboratories, so protocols vary. An empty or dashed field is not shown. ECn: concentration that inhibits the pathogen or its effect by n%.

structure | cells | mutations | strain | result
Nc1nc2c(ncn2C[C@]2(CO)C[C@H]2CO)c(=O)[nH]1 | VERO |  | KOS | 1.3 µg/mL
O=c1c2ncn(COC(CO)CO)c2[nH]c2nccn12 |  |  | TK-deficient acyclovir-resistant | 400 µg/mL
CC1(C)[C@@H](CCO)C[C@H]1n1nnc2c(N)ncnc21 | E6SM |  | TK-/VMW 1837 | 150 µg/mL
COc1ccc(-c2cn3c(=O)c4ncn(COC(CO)CO)c4nc3[nH]2)cc1 |  |  | McIntyre | 0.005 µg/mL
[N-]=[N+]=N[C@H]1[C@@H](F)[C@H](n2cnc3c(N)ncnc32)O[C@@H]1CO | PRK |  | KOS | >400 µg/mL
Cc1cn(CC[C@H](O)CCO)c(=O)[nH]c1=O | E6SM |  | KOS | >400 µg/mL
Nc1ncnc2c1ncn2[C@@H]1O[C@H](COP(=O)(O)O[C@@H]2[C@H](O)[C@@H](COP(=O)(O)O[C@@H]3[C@H](O)[C@@H](COP(=O)(O)OP(=O)(O)OP(=O)(O)O)O[C@H]3n3cnc4c(N)ncnc43)O[C@H]2n2cnc3c(N)ncnc32)[C@@H](O)[C@H]1O | E6SM |  |  | >200 µg/mL
O=c1[nH]c(=O)n([C@H]2C[C@H](O)[C@@H](COP(=O)(O)O)O2)cc1CCc1ccccc1 | PRK |  | KOS | 15 µg/mL
N#CSc1cn([C@@H]2O[C@H](CO)[C@@H](O)[C@H]2O)c(=O)[nH]c1=O | PRK |  |  | 40 µg/mL
C[C@H]1[C@H](O)[C@@H](CO)O[C@H]1n1cc(Br)c(N)nc1=O | RPMI8226 |  | F | 1.86 µg/mL
Cc1ccc(/C=N/NC(=O)c2ccccc2S(=O)(=O)NC(C)C)cc1 | HEL |  | KOS | >100 µM
CC1(C)[C@@H](CCO)C[C@H]1n1nnc2c(=O)[nH]c(N)nc21 | E6SM |  | TK-/B2006 | 40 µg/mL
CCCc1cn([C@H]2C[C@H](O)[C@@H](COP(=O)(O)O)O2)c(=O)[nH]c1=O | PRK |  | B2006 (TK-) | >797 µg/mL
CC1(C)[C@@H](CCO)C[C@H]1n1cnc2c(=O)[nH]cnc21 | E6SM |  | KOS | >400 µg/mL
O=P(O)(O)OC[C@H]1OC(O)[C@@H](O)[C@@H](O)[C@@H]1O | PRK |  |  | >400 µg/mL
CC(C)NS(=O)(=O)c1ccccc1C(=O)N/N=C/c1ccc(Br)cc1 | HEL | TK-deficient acyclovir-resistant | KOS | >100 µM
COc1ccc(-c2[nH]c3nc4c(ncn4COCCO)c(=O)n3c2-c2ccc(C(c3ccccc3)c3ccccc3)cc2)cc1 |  |  | F | >16 µg/mL
CC1(C)[C@@H](CCO)C[C@H]1n1nnc2c(=O)[nH]cnc21 | E6SM |  | TK-/VMW 1837 | 70 µg/mL
O=c1[nH]c(=O)n([C@H]2C[C@H](O)[C@@H](COP(=O)(O)O)O2)cc1/C=C/c1cccc([N+](=O)[O-])c1 | PRK |  | McIntyre | >100 µg/mL
Nc1nc2c(ncn2COCCOP(=O)(O)O[C@@H]2[C@H](O)[C@@H](COP(=O)(O)O[C@@H]3[C@H](O)[C@@H](CO)O[C@H]3n3cnc4c(N)ncnc43)O[C@H]2n2cnc3c(N)ncnc32)c(=O)[nH]1 | PRK |  | F | 0.7 µg/mL
Nc1nc2c(ncn2COCCO)c(=O)[nH]1 | HEL |  | KOS | 0.4 µM
C[C@H]1[C@H](O)[C@@H](CO)O[C@H]1n1cc(F)c(=O)[nH]c1=O | RPMI8226 |  | KOS | >67.5 µg/mL
Nc1ncnc2c1ncn2CC[C@H](O)CCO | E6SM |  | KOS | >400 µg/mL
Cc1cn([C@H]2O[C@H](CO)[C@@H](N=[N+]=[N-])[C@H]2F)c(=O)nc1N | PRK |  | KOS | >400 µg/mL
Nc1ncnc2c1ncn2[C@@H]1O[C@H](CO)[C@@H](O)[C@H]1OP(=O)(O)OC[C@H]1O[C@@H](n2cnc3c(N)ncnc32)[C@H](OP(=O)(O)OC[C@H]2O[C@@H](n3cc(/C=C/Br)c(=O)[nH]c3=O)C[C@@H]2O)[C@@H]1O | PRK |  | F | 0.07 µg/mL
CCc1cn([C@H]2C[C@H](O)[C@@H](COP(=O)(O)O)O2)c(=O)[nH]c1=O | HSF |  | KOS | 4.1 µg/mL
CSc1nnc(-c2ccccc2S(=O)(=O)NC(C)C)o1 | HEL | TK-deficient acyclovir-resistant | KOS | >100 µM
Nc1nc2c(ncn2COCCO)c(=O)[nH]1 | HFF |  | M35290 (acyclovir-susceptible) | 0.25 µg/mL
C[C@H]1[C@H](O)[C@@H](CO)O[C@H]1n1cc(I)c(N)nc1=O | RPMI8226 |  | F | 1.89 µg/mL
O=c1c2ncn(COC(CO)CO)c2nc2[nH]c(-c3ccccc3)cn12 | E6SM |  | KOS | 0.02 µg/mL
C[C@H]1[C@H](O)[C@@H](CO)O[C@H]1n1cc(Br)c(=O)[nH]c1=O | RPMI8226 |  | Hangai | 6.52 µg/mL
O=c1c2ncn(COCCO)c2[nH]c2ncc(C(c3ccccc3)(c3ccccc3)c3ccccc3)n12 |  |  | TK-deficient acyclovir-resistant | >16 µg/mL
CO[C@H](CO)[C@@H](O)CCn1cnc2c(N)ncnc21 | E6SM |  | KOS | >400 µg/mL
O=c1c2ncn(COCCO)c2[nH]c2ncc(CO)n12 |  |  | VMW 1837 | >3.2 µg/mL
O=c1[nH]c(=O)n([C@H]2C[C@H](O)[C@@H](CO)O2)cc1I | E6SM |  | B2006 (TK-) | 10 µg/mL
N#CSc1cn([C@@H]2O[C@H](CO)[C@@H](O)[C@@H]2O)c(=O)[nH]c1=O | PRK |  |  | 4 µg/mL
COc1ccc(/C=N/NC(=O)c2ccccc2S(=O)(=O)NC(C)C)cc1 | HEL | TK-deficient acyclovir-resistant | KOS | >100 µM
CO[C@H](CO)[C@@H](O)CCn1cc(C)c(=O)[nH]c1=O | E6SM |  | VMW1837 (TK-) | >400 µg/mL